In patent US20220235118A1 (IMMUNOME, published 2022):

B1: PR193_00018 (antibody, V domains shown)
VH: EVQLVESGGGLVQPGGSLRLSCSASGFTFSSFWMSWVRQAPGKGLEWVATIREDGSEKYYVDSVKGRFSISRDNAKNSLYLQMNSLRAEDTAVYYCARSKWLRGSFDYWGQGTLVTVSS
VL: NFMLTQPHSVSESPGKTVTISCTRRSGSIASNYVQWYQQRPGSAPTTVIYEDNQRPSGVPDRFSGSIDSSSNSASLTISGLQTEDEADYYCQSYDSSNPPGASWVFGGGTKLTVL
notes: also called IMM20184; IMM200184
B2: PR194_00232 (antibody, V domains shown)
VH: EVQLVESGGGLVQPGGSLRLSCSASGFTVSSNYMSWVRQAPRKGLEWVSVIYAGGSTFYADSVKGRFTISRDNSKNTLLLQMNSLRAEDTAVYYCARDRGGYLDYWGQGTLVTVSS
VL: DIQMTQSPSSLSASVGDRVTITCRASQGISNYLAWYQQKPGKVPKLLIYAASTLQSGVPSRFSGSGSGTDFTLTISSLQPEDVATYYCQKYNSAPGLTFGGGTKVEIK
notes: also called IMM20190; PR194_00190
B3: PR200_00622 (antibody, V domains shown)
VH: QVQLVESGGGVVQPGRSLRLSCTASGFTFSTYGMHWVRQAPGKGLEWVAVISYDGSSKHYAESVKGRFTISRDNSNNTLYLQMNRLRAEDTAVYYCARDGQPPGWGNYFDYWGQGTLVTVAS
VL: SYVLTQPPSVSVAPGKTARITCGGNGIGSKSVYWYQQKPGQAPEVVVYDDSDRPSGIPERFSGSNSGNTATLTISRVEAGDEADYYCQVWDSSSDPWVFGGGTKLTVL
notes: also called IMM20253; PR200_00253
B4: PR199_00255 (antibody, V domains shown)
VH: QVQLVESGGGVVQPGRSLRLSCAASGFTFSTYGMHWVRQAPGKGLEWVAVIWYNGINKHYADSVKGRFTISRDNSKNTLYLQMSSLRVEDTAVYYCARDWGTLTTLFDFWGQGTLVTVSS
VL: DIQMTQSPSSLSASVGERATITCRASQSISSHLNWYQQKPGKAPKFLIYGASSLQSGVPSRFSGSGSGTDFTLTISSLQPEDFATYYCQQSYSTPPWTFGQGTKVEIK
notes: also called IMM20279; PR190_00255

These binders were tested against SARS-CoV-2 Spike receptor binding domain (RBD), reference (USA/WA_CDC-WA1/2020) (SARS-CoV-2, UniProt P0DTC2 319-591) (assay: cell-based or functional assay).
B1 was tested, and the “Phagocytosis score at 0.6 nM” value was 56.6.
B2 was tested, and the “Phagocytosis score at 0.6 nM” value was 48.1.
With B3 the “Phagocytosis score at 0.6 nM” value was 49.5.
In the case of B4, the “Phagocytosis score at 0.6 nM” value is reported as 43.3.
